The target of the assay is SARS-CoV-2 Nsp3 Mac1 (Severe acute respiratory syndrome coronavirus 2, UniProt P0DTD1). Particulars: read-out: Peptide displacement IC50.

The IC50 is the midpoint of a concentration-inhibition curve. Regarding “adenosine diphosphate ribose [ADP-ribose, reference compound]”, the IC50 was 161 nM.
